Measurements reported in patent publication US9549941B2, “Compositions and methods for treating hepatitis C virus” (priority 2011, dated 2017).

Tests used:
Format in all cases: cell-based, hepatitis C virus
[1] = tested on: 1b con-1-based chimeric replicon containing 3a NS5B S282T; details: genotype 3a, S282T from corresponding wild-type
[2] = tested on: 1b con-1-based chimeric replicon containing 4a NS5B S282T; details: genotype 4a, S282T from corresponding wild-type
[3] = tested on: 1b con-1-based chimeric replicon containing 2b NS5B S282T; details: genotype 2b, S282T from corresponding wild-type
[4] = tested on: 2a JFH1 sub-genomic replicon, NS5B S282T; details: genotype 2a, S282T from corresponding wild-type
[5] = tested on: 1a-H77 sub-genomic replicon, NS5B S282T; details: genotype 1a, S282T from corresponding wild-type
[6] = tested on: 1b con-1 sub-genomic replicon, NS5B S282T; details: genotype 1b, S282T from corresponding wild-type

Measured: Fold Change

NC(=O)c1ncn([C@@H]2O[C@H](CO)[C@@H](O)[C@H]2O)n1 [Ribavirin, 1-β-D-ribofuranosyl-1H-1,2,4-triazole-3-carboxamide, reference compound]
0.1: [2] | [4]
0.2: all other assays above
